Reference: article PMC6304311 (Influenza and Other Respiratory Viruses, 2018)

The chains behind the UniProt entries cited, without tags or fusion partners.
UniProt A0A1S5RAG6, entry or part of it, added parts left off: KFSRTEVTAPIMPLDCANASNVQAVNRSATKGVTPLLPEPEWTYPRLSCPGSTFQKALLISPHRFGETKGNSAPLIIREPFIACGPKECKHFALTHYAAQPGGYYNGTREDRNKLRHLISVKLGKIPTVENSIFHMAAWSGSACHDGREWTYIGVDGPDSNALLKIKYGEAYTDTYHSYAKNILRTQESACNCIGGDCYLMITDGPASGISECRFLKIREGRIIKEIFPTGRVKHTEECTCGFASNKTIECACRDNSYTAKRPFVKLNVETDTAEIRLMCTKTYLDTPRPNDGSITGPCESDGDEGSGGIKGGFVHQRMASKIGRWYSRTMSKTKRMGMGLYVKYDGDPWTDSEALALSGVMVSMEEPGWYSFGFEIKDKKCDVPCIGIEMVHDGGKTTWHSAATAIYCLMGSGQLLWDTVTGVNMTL

Key:
[1] = molecular target: T1, NA from influenza B virus isolates (Influenza B virus, UniProt A0A1S5RAG6); conditions: cited from earlier work
[2] = molecular target: T1, NA from influenza B virus isolates; experiment: NA-STAR/NA-XTD chemiluminescent neuraminidase inhibition assay, influenza B; assay type: biochemical

CC(=O)N[C@H]1[C@H]([C@H](O)[C@H](O)CO)OC(C(=O)O)=C[C@@H]1N=C(N)N [zanamivir]
susceptibility phenotype of reference virus ([1]; B/Memphis/20/1996, R152K (N2 numbering) or R150K (N1 numbering) NA substitution): resistant | susceptibility phenotype of reference virus ([1]; B/Memphis/20/1996, wild‐type): susceptible | Susceptible ([2]; Influenza B isolates 2007‐2008): Yes | Susceptible ([2]; Influenza B isolates 2009‐2013): susceptible | Susceptible ([2]; Influenza B isolates 2009‐2013, listed as Zanamivir): Yes

Like-named read-outs stand apart in the source and are kept apart here.
